In US10869476B2 (priority 2015, dated 2020) one finds Yield in dt/ha data, which are given here for one compound.

The assay is described as follows: Field trials of wheat, yield. The settings on record: wheat field trials France and Germany 2016, UTC 80.

With `CON(C(=O)c1cn(C)nc1C(F)F)C(C)Cc1c(Cl)cc(Cl)cc1Cl` (centres unmarked) [Pydiflumetofen, 3-(Difluoromethyl)-N-methoxy-1-methyl-N-[1-(2,4,6-trichlorophenyl)-2-propanyl]-1H-pyrazole-4-carboxamide], the Yield in dt/ha is 112 dt/ha (45 g a.i./ha) and 111 dt/ha (60 g a.i./ha).
